Laboratory results: PubChem BioAssay AID624099 (ICCB-Longwood, 2012)
Aim: 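Human genes that papillomavirus E2 requires to repress the HPV18 LCR promoter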 (primary screen). Cells: human C33A cervical carcinoma cells (HPV-negative) stably expressing BPV1 E2 and an HPV18 LCR luciferase reporter. Reagents: siRNA pool against human genes, 40 nM. Duration: 72 h. Detection: 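Per-well luciferase luminescence, z-scored on each plate against the plate mean and SD with control wells left out, then averaged across three replicate plates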. Reading the numbers: mean z-score and z-score: higher = stronger reporter signal, weaker E2 silencing. Hit rule: 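Mean z ≥ 2 together with z ≥ 2 in two or more of the three replicates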.
In all, the deposit lists about 21,000 reagents; shown is an unselected part. Over the whole deposit, 497 (2.4%) were called active. 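Higher z means weaker E2 silencing; only reporter increases were scored, and knock-downs that hurt cell survival may mask genuine repressor factors.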 Entries without a mark were called inactive. No sequences are given here.

gene symbol | mean z-score | z-score, replicate A | z-score, replicate B | z-score, replicate C
PPY (pancreatic polypeptide) | 0.55 | 0.67 | 0.52 | 0.45
CEP19 (centrosomal protein 19) | -0.28 | -0.19 | -0.29 | -0.38
NCF1C (neutrophil cytosolic factor 1C (pseudogene)) | 0.69 | 0.77 | 0.47 | 0.82
TDRD3 (tudor domain containing 3) | -0.76 | -0.9 | -0.45 | -0.92
PRR20A (proline rich 20A) | 1.04 | 1.06 | 1.15 | 0.92
LOC392670 (retired record) | -0.52 | -0.58 | -0.64 | -0.35
RPS12P3 (ribosomal protein S12 pseudogene 3) | -1.13 | -1.26 | -0.94 | -1.18
MESTP4 (mesoderm specific transcript pseudogene 4) | 0.43 | 0.28 | 0.32 | 0.7
MRPL22 (mitochondrial ribosomal protein L22) | -0.48 | -0.42 | -0.48 | -0.53
CD3D (CD3 delta subunit of T-cell receptor complex) | -1.43 | -1.53 | -1.4 | -1.37
ENPEP (glutamyl aminopeptidase) | 0.51 | 0.68 | 0.32 | 0.53
RTN3 (reticulon 3) | -0.2 | -0.17 | -0.19 | -0.23
ASB15 (ankyrin repeat and SOCS box containing 15) | -0.77 | -0.52 | -1.14 | -0.65
POM121 (POM121 transmembrane nucleoporin) | -0.13 | -0.21 | -0.17 | 0
AARSD1 (alanyl-tRNA synthetase domain containing 1) | 0.79 | 0.57 | 0.71 | 1.09
LELP1 (late cornified envelope like proline rich 1) | 0.39 | 0.48 | 0.15 | 0.56
SREBF2 (sterol regulatory element binding transcription factor 2) | 0.23 | 0.11 | 0.37 | 0.22
RAD50 (RAD50 double strand break repair protein) | -0.72 | -0.69 | -0.75 | -0.73
ATP6AP2 (ATPase H+ transporting accessory protein 2) | -0.55 | -0.74 | -0.56 | -0.35
ECH1 (enoyl-CoA hydratase 1) | -0.39 | -0.19 | -0.43 | -0.55
ZNF414 (zinc finger protein 414) | 1.52 | 1.4 | 1.62 | 1.54
PCDHGA3 (protocadherin gamma subfamily A, 3) | 1.26 | 1.25 | 1.27 | –
PCM1 (pericentriolar material 1) | -1.48 | -1.48 | -1.55 | -1.41
EBI3 (Epstein-Barr virus induced 3) | -0.33 | -0.37 | -0.33 | -0.3

No new results follow: an excerpt of the list.
gene symbol | mean z-score | z-score, replicate A | z-score, replicate B | z-score, replicate C
MESTP4 (mesoderm specific transcript pseudogene 4) | 0.43 | 0.28 | 0.32 | 0.7
MRPL22 (mitochondrial ribosomal protein L22) | -0.48 | -0.42 | -0.48 | -0.53
CD3D (CD3 delta subunit of T-cell receptor complex) | -1.43 | -1.53 | -1.4 | -1.37
ENPEP (glutamyl aminopeptidase) | 0.51 | 0.68 | 0.32 | 0.53
RTN3 (reticulon 3) | -0.2 | -0.17 | -0.19 | -0.23
ASB15 (ankyrin repeat and SOCS box containing 15) | -0.77 | -0.52 | -1.14 | -0.65
POM121 (POM121 transmembrane nucleoporin) | -0.13 | -0.21 | -0.17 | 0
AARSD1 (alanyl-tRNA synthetase domain containing 1) | 0.79 | 0.57 | 0.71 | 1.09
LELP1 (late cornified envelope like proline rich 1) | 0.39 | 0.48 | 0.15 | 0.56
SREBF2 (sterol regulatory element binding transcription factor 2) | 0.23 | 0.11 | 0.37 | 0.22
RAD50 (RAD50 double strand break repair protein) | -0.72 | -0.69 | -0.75 | -0.73

Further entries:
gene symbol | mean z-score | z-score, replicate A | z-score, replicate B | z-score, replicate C
UACA | 0.67 | 0.9 | 0.65 | 0.44
ZHX2 (zinc fingers and homeoboxes 2) | 0.93 | 1.14 | 0.69 | 0.94
PAFAH2 (platelet activating factor acetylhydrolase 2) | -0.6 | -0.79 | -0.6 | -0.4
ABHD5 | 1.74 | 1.8 | 1.93 | 1.47
CHRNA9 (cholinergic receptor nicotinic alpha 9 subunit) | -0.36 | -0.53 | -0.36 | -0.19
XAF1 (XIAP associated factor 1) | -1.4 | -0.86 | -1.61 | -1.71
APOBEC3A (apolipoprotein B mRNA editing enzyme catalytic subunit 3A) | -0.21 | 0.05 | -0.39 | -0.27
AQP5 (aquaporin 5) | 0.96 | 0.82 | 1.15 | 0.92
CYP2C9 (cytochrome P450 family 2 subfamily C member 9) | 0.36 | 0.29 | 0.25 | 0.55
LOC401704 (retired record) | -0.68 | -0.76 | -0.55 | -0.74
TRERF1 (transcriptional regulating factor 1) | 1.27 | 1.33 | 0.99 | 1.49
CCDC91 (coiled-coil domain containing 91) | -0.78 | -1.07 | -0.95 | -0.32
MBD3L2 (methyl-CpG binding domain protein 3 like 2) | 0.84 | 1.26 | 0.61 | 0.65
LOC390570 (retired record) | -0.44 | -0.26 | -0.67 | -0.38
KDF1 (keratinocyte differentiation factor 1) | -0.51 | -0.75 | -0.49 | -0.3
NFIX (nuclear factor I X) | -0.88 | -0.67 | -0.82 | -1.14
CDC14C (cell division cycle 14C) | -0.02 | 0.14 | -0.11 | -0.1
EFCAB13 (EF-hand calcium binding domain 13) | 0.16 | 0.26 | -0.08 | 0.28
ZKSCAN4 (zinc finger with KRAB and SCAN domains 4) | -2.27 | -2.07 | -2.82 | -1.92
RIPOR2 (RHO family interacting cell polarization regulator 2) | -0.59 | -0.71 | -0.62 | -0.45
MMP8 (matrix metallopeptidase 8) | 0.1 | 0.16 | -0.21 | 0.35
LINC02347 (long independently transcribed non-coding RNA 2347) | 0.09 | 0.28 | -0.02 | 0.03
SAP130 (Sin3A associated protein 130) | -1.21 | -1.44 | -1.52 | -0.66
AKAP13 (A-kinase anchoring protein 13) | 0.47 | 0 | 0.62 | 0.8
MSTO1 (misato mitochondrial distribution and morphology regulator 1) | -0.87 | -1.11 | -0.94 | -0.55
COX7B2 (cytochrome c oxidase subunit 7B2) | -0.06 | -0.52 | -0.06 | 0.4
PRRC2C (proline rich coiled-coil 2C) | 0.86 | 0.83 | 1.04 | 0.71
EPHA3 (EPH receptor A3) | -0.04 | 0.1 | 0.09 | -0.3
LOC389300 (retired record) | -1.07 | -1.15 | -0.75 | -1.32
KRTAP13-4 (keratin associated protein 13-4) | -0.65 | -0.73 | -0.71 | -0.5
HSBP1 (heat shock factor binding protein 1) | 0.25 | 0.68 | 0.05 | 0.01
ASGR1 (asialoglycoprotein receptor 1) | 1.23 | 1.22 | 1.38 | 1.08
CCDC174 (coiled-coil domain containing 174) | -0.89 | -0.56 | -1.04 | -1.08
VPS33A (VPS33A core subunit of CORVET and HOPS complexes) | 0.32 | 0 | 0.37 | 0.58
LOC283029 (retired record) | 1.03 | 1.01 | 0.87 | 1.22
ZCCHC24 (zinc finger CCHC-type containing 24) | 0.56 | 0.78 | 0.46 | 0.45
VENTX (VENT homeobox) | 0.51 | 0.59 | 0.54 | 0.4
GPX5 (glutathione peroxidase 5) | -0.18 | 0.22 | -0.21 | -0.54
FANCC (FA complementation group C) | -0.3 | -0.2 | -0.35 | -0.36
COL4A2 (collagen type IV alpha 2 chain) | 0.46 | 0.56 | 0.56 | 0.26
ADNP (activity dependent neuroprotector homeobox) | -1.35 | -1.51 | -1.31 | -1.24
NUP153 (nucleoporin 153) | -0.2 | -0.27 | -0.21 | -0.13
CFHR5 (complement factor H related 5) | -0.08 | 0.51 | -0.54 | -0.22
SGSM1 (small G protein signaling modulator 1) | 0.21 | -0.08 | 0.3 | 0.41
CRYBG1 (crystallin beta-gamma domain containing 1) | -0.69 | -0.71 | -0.87 | -0.48
HAP1 (huntingtin associated protein 1) | -0.21 | -0.07 | -0.34 | -0.23
LOC401270 (retired record) | 0.61 | 0.31 | 0.88 | 0.64
CNTN1 (contactin 1) | -0.53 | -0.44 | -0.39 | -0.77
TBC1D3C (TBC1 domain family member 3C) | 0.41 | 0.46 | 0.82 | -0.05
